One data set relates to CV-B3 Nancy strain. The data set can be described thus: CPE protection assay, CV-B3. It counts as cell-based, Coxsackievirus B3. As to conditions: RD, ratio of CC50 to EC50.
A further data set deals with EV-A71 H strain. Description: CPE protection assay, EV-A71 H strain (CellTiter-Glo). The class given is cell-based, enterovirus A71. The following applies: CC50/EC50.
For the next data set, the system named is CV-A16 190-D1 strain. The data set can be described thus: CPE protection assay, CV-A16. It counts as cell-based, coxsackievirus A16. As to conditions: CV-A16 190-D1, RD; ratio of CC50 to EC50.
The test system of a further data set is EV-A71 AH08/06 strain. Description: CPE protection assay, EV-A71 clinical isolate AH08/06. It counts as cell-based, enterovirus A71. As to conditions: EV-A71 AH08/06, Huh7; ratio of CC50 to EC50.

The structures appear in SMILES notation.

Turning to `O=c1[nH]c(=NO)ccn1[C@@H]1O[C@H](CO)[C@@H](O)[C@H]1O` [EIDD-1931, β-D-N^4-hydroxycytidine], the SI was determined as 3.85 with CV-B3 Nancy strain, 19.43 in the data set on CV-A16 190-D1 strain and 12.22 with EV-A71 AH08/06 strain. The “select index (SI)” value was determined as 7.69 with EV-A71 H strain (Huh7 cells), 15.69 in the data set on EV-A71 H strain (RD cells) and 2.0 with EV-A71 H strain (Vero cells).
In the case of `CC(C)C(=O)OC[C@H]1O[C@@H](n2ccc(NO)nc2=O)[C@H](O)[C@@H]1O` [EIDD-2801, molnupiravir], the SI is reported as greater than 1.15 in the data set with CV-B3 Nancy strain, greater than 2.23 in the data set with CV-A16 190-D1 strain and greater than 3.3 in the data set with EV-A71 AH08/06 strain. The “select index (SI)” value is greater than 2.81 in the data set with EV-A71 H strain (Huh7 cells), greater than 1.43 in the data set on EV-A71 H strain (RD cells) and greater than 1.13 with EV-A71 H strain (Vero cells).

Source of the values: publication PMC9227765 (Viruses, 2022).
